Pooled drug test results. Numbers come from NIAID ChemDB, via PubChem.

Common to all: whole-cell or culture tests

An empty or dashed field is not shown. Inhibition is in % at the dose shown (toxicity tests: loss of growth or viability). Rows are shuffled and stem from different studies. ECn: concentration that inhibits the pathogen or its effect by n%.

| smiles | cells | endpoint | method | dose | species | result |
|---|---|---|---|---|---|---|
| COc1ccc(OC)c(Cc2cnc3nc(N)nc(N)c3c2C)c1 | MRC-5 fibroblasts | inhibition | cytopathic effect | 1 µg/mL | Encephalitozoon cuniculi | 0% |
| N#Cc1c(SCCO)nsc1-c1ccccc1 | L929 | EC50 | plaque count |  | Encephalomyocarditis virus | >5 µg/mL |
| CCOC(=O)Nc1cc2c(c(N)n1)N=C(c1ccccc1)CCN2 | RK-13 | inhibition |  | 1 µg/mL | Encephalitozoon intestinalis | 83.1% |
| O=c1[nH]cc(F)c(=O)[nH]1 | MRC-5 fibroblasts | inhibition | cytopathic effect | 30 µg/mL | Encephalitozoon cuniculi | 100% |
| O=c1c2cccnc2[se]n1-c1ccccc1 |  | MIC |  |  | Encephalomyocarditis virus | 4 µg/mL |
| c1ccc2[nH]c(-c3cscn3)nc2c1 | E6 HOST CELLS | EC50 |  |  | Encephalitozoon intestinalis | >3 µg/mL |
| CO[C@@H]1[C@H](OC(=O)NC(=O)CCl)CC[C@]2(CO2)[C@H]1[C@@]1(C)O[C@@H]1CC=C(C)C | RK-13 | EC50 |  |  | Encephalitozoon hellem | 0.001 µg/mL |
| O=c1[nH][se]c2ccccc12 |  | MIC |  |  | Encephalomyocarditis virus | 0.4 µg/mL |
| Nc1ccc(S(=O)(=O)Nc2ncccn2)cc1 | MRC-5 fibroblasts | inhibition | cytopathic effect | 50 µg/mL | Encephalitozoon cuniculi | 0% |
| CCCCNS(=O)(=O)c1ccc(NC(=O)CCC[Se][Se]CCCC(=O)Nc2ccc(S(=O)(=O)NCCCC)cc2)cc1 |  | MIC |  |  | Encephalomyocarditis virus | >1000 µg/mL |
| N#Cc1c(N2CCCCC2)nsc1-c1ccccc1 | L929 | EC50 | plaque count |  | Encephalomyocarditis virus | >25 µg/mL |
| CC(=O)NS(=O)(=O)c1ccc(NC(=O)CCC[Se][Se]CCCC(=O)Nc2ccc(S(=O)(=O)NC(C)=O)cc2)cc1 |  | MIC |  |  | Encephalomyocarditis virus | 100 µg/mL |
| CCOC(=O)CSc1nsc(-c2ccccc2)c1C#N | L929 | EC50 | plaque count |  | Encephalomyocarditis virus | >200 µg/mL |
| COC(=O)Nc1nc2ccc(Sc3ccccc3)cc2[nH]1 | E6 HOST CELLS | EC50 |  |  | Encephalitozoon intestinalis | 0.2 µg/mL |
| O=c1c2cccnc2[se]n1N(c1ccccc1)c1cc(Cl)ccn1 |  | MIC |  |  | Encephalomyocarditis virus | 100 µg/mL |
| N#Cc1c(SCCCCBr)nsc1-c1ccccc1 | L929 | EC50 | plaque count |  | Encephalomyocarditis virus | 5 µg/mL |
| CO[C@H]1[C@@H](OC(=O)/C=C/C=C/C=C/C=C/C(=O)O)CC[C@@]2(CO2)[C@@H]1[C@@]1(C)O[C@@H]1CC=C(C)C |  | EC50 |  |  | Encephalitozoon cuniculi | 0.00086 µg/mL |
| Cn1[se]c2ncccc2c1=O |  | MIC |  |  | Encephalomyocarditis virus | 4 µg/mL |
| O=C1C(=O)c2ccccc2C(O)=C1C1CCC(c2ccc(Cl)cc2)CC1 | MRC-5 fibroblasts | inhibition | cytopathic effect | 0.2 µg/mL | Encephalitozoon cuniculi | 0% |
| CCCNC(=O)Oc1ccccc1[Se][Se]c1ccccc1OC(=O)NCCC |  | MIC |  |  | Encephalomyocarditis virus | 4 µg/mL |
| CC(=O)Oc1ccccc1C(=O)Nc1ncc([N+](=O)[O-])s1 | RK-13 | inhibition |  | 10 µg/mL | Encephalitozoon intestinalis | 83.1% |
| Cc1ncc([N+](=O)[O-])n1CCO | MRC-5 fibroblasts | EC50 | cytopathic effect |  | Encephalitozoon cuniculi | <50 µg/mL |
| Cc1c(CN(C)c2cccc3c2CCCC3)cnc2nc(N)nc(N)c12 | RK-13 | inhibition |  | 1 µg/mL | Encephalitozoon intestinalis | 75.7% |
| c1ccc2[nH]c(-c3cscn3)nc2c1 |  | EC50 |  |  | Encephalitozoon cuniculi | 0.3 µg/mL |
| CO[C@H]1[C@@H](OC(=O)/C=C/C=C/C=C/C=C/C(=O)O)CC[C@@]2(CO2)[C@@H]1[C@@]1(C)O[C@@H]1CC=C(C)C | MRC-5 fibroblasts | EC50 | cytopathic effect |  | Encephalitozoon cuniculi | <0.1 µg/mL |
| CCCSc1ccc2nc(NC(=O)OC)[nH]c2c1 | E6 | EC50 |  |  | Encephalitozoon intestinalis | 0.005 µg/mL |
| c1ccc2[nH]c(-c3cscn3)nc2c1 | RK-13 | inhibition |  | 1 µg/mL | Encephalitozoon intestinalis | 88.4% |
| C[n+]1cccc(-n2[se]c3ccccc3c2=O)c1 |  | MIC |  |  | Encephalomyocarditis virus | 20 µg/mL |
| CC(C)C[C@@H](N)[C@H](O)C(=O)N[C@H](C(=O)N[C@H](C(=O)N[C@@H](CC(=O)O)C(=O)O)C(C)C)C(C)C |  | EC50 |  |  | Encephalitozoon cuniculi | >20 µg/mL |
| Cc1cc(-n2c(=O)[nH]c(=O)n(C)c2=O)ccc1Oc1ccc(SC(F)(F)F)cc1 |  | EC50 |  |  | Encephalitozoon cuniculi | >5 µg/mL |
| CCNCCCCNCCCCNCCCCNC/C=C/CNCCCCNCCCCNCCCCNCC |  | EC50 |  |  | Encephalitozoon cuniculi | 8.2 µM |
| COc1cc2c(c(OC)c1OC)-c1ccc(OC)c(=O)cc1[C@@H](NC(C)=O)CC2 | RK-13 | inhibition |  | 0.01 µg/mL | Encephalitozoon intestinalis | 43.1% |
| CN(C)c1ccc(O)c2c1C[C@H]1C[C@H]3[C@H](N(C)C)C(=O)C(C(N)=O)=C(O)[C@@]3(O)C(=O)C1=C2O | MRC-5 fibroblasts | inhibition | cytopathic effect | 50 µg/mL | Encephalitozoon cuniculi | 54% |
| CO[C@H]1[C@@H](OC(=O)/C=C/C=C/C=C/C=C/C(=O)O)CC[C@@]2(CO2)[C@@H]1[C@@]1(C)O[C@@H]1CC=C(C)C | RK-13 | inhibition |  | 1 µg/mL | Encephalitozoon intestinalis | 86.9% |
| CC[C@H]1OC(=O)[C@H](C)[C@@H](O[C@H]2C[C@@](C)(OC)[C@@H](O)[C@H](C)O2)[C@H](C)[C@@H](O[C@@H]2O[C@H](C)C[C@H](N(C)C)[C@H]2O)[C@](C)(O)C[C@@H](C)/C(=N\OCOCCOC)[C@H](C)[C@@H](O)[C@]1(C)O | MRC-5 fibroblasts | inhibition | cytopathic effect | 50 µg/mL | Encephalitozoon cuniculi | 0% |
| CCOC(=O)Nc1cc2c(c(N)n1)N=C(c1ccc(OC)cc1)CO2 | RK-13 | inhibition |  | 0.01 µg/mL | Encephalitozoon intestinalis | 17.9% |
| O=c1c2ccccc2[se]n1-c1ccccc1 |  | MIC |  |  | Encephalomyocarditis virus | 10 µg/mL |

The last 5 rows once more:

smiles,cells,endpoint,method,dose,species,result
CN(C)c1ccc(O)c2c1C[C@H]1C[C@H]3[C@H](N(C)C)C(=O)C(C(N)=O)=C(O)[C@@]3(O)C(=O)C1=C2O,MRC-5 fibroblasts,inhibition,cytopathic effect,50 µg/mL,Encephalitozoon cuniculi,54%
CO[C@H]1[C@@H](OC(=O)/C=C/C=C/C=C/C=C/C(=O)O)CC[C@@]2(CO2)[C@@H]1[C@@]1(C)O[C@@H]1CC=C(C)C,RK-13,inhibition,,1 µg/mL,Encephalitozoon intestinalis,86.9%
CC[C@H]1OC(=O)[C@H](C)[C@@H](O[C@H]2C[C@@](C)(OC)[C@@H](O)[C@H](C)O2)[C@H](C)[C@@H](O[C@@H]2O[C@H](C)C[C@H](N(C)C)[C@H]2O)[C@](C)(O)C[C@@H](C)/C(=N\OCOCCOC)[C@H](C)[C@@H](O)[C@]1(C)O,MRC-5 fibroblasts,inhibition,cytopathic effect,50 µg/mL,Encephalitozoon cuniculi,0%
CCOC(=O)Nc1cc2c(c(N)n1)N=C(c1ccc(OC)cc1)CO2,RK-13,inhibition,,0.01 µg/mL,Encephalitozoon intestinalis,17.9%
O=c1c2ccccc2[se]n1-c1ccccc1,,MIC,,,Encephalomyocarditis virus,10 µg/mL